Measured values from several laboratories, pooled; numbers as filed in NIAID ChemDB.

ICn: concentration for n% inhibition. Rows are shuffled and stem from different studies. MIC bound: limit read from a one-dose screen. Percent inhibition refers to the dose given; in toxicity tests it is the harm to the cells. An empty or dashed field is not shown. A number after MIC or MFC names an inhibition level or a share of isolates.

compound	test	species	strain	protein	read by	endpoint	tested at	result
CC(=O)c1cccc(-c2cncc(N3CCN(c4ccc(F)cc4F)CC3)n2)c1	target	Cytomegalovirus		UL97 kinase		inhibition	10 µM	>15%
CC(=O)OC1(C#N)CC2OC1C1N=NN(C(=O)OC(C)(C)C)C21	culture	Mycobacterium tuberculosis	H37Rv		BACTEC	inhibition	12.5 µg/mL	12%
C=CCc1ccc(OC)c(OC)c1	culture	Candida tropicalis	3189		turbidity	MIC90		345 µg/mL
O=C(/C=C/c1ccccc1O)c1ccccc1	culture	Mycobacterium tuberculosis	H37Rv			MIC		6.25 µg/mL
CC(C)(CO)[C@@H](O)C(=O)NCCC(=O)O	culture	Mycobacterium tuberculosis	H37Rv		BACTEC	MIC bound		>12.5 µg/mL
N=C1SCC(=O)N1CC(=O)O	culture	Mycobacterium tuberculosis	H37Rv			MIC		>100 µg/mL
O=C1OC(C(O)CO)C(=N\Nc2ccc(Cl)cc2)/C1=N\Nc1ccccc1	culture	Mycobacterium tuberculosis	H37Rv		BACTEC	inhibition	12.5 µg/mL	58%
CC(=O)c1ccc(N2CCN(c3cncc(-c4cccc(C)c4)n3)CC2)cc1	target	Cytomegalovirus		UL97 kinase		inhibition	10 µM	>15%
CCN(CC)Cc1c(C)[nH]c2c(OC)cccc2c1=O	culture	Mycobacterium tuberculosis	H37Rv		BACTEC	inhibition	12.5 µg/mL	0%
CCc1c(Oc2cc(Nc3ccc(C)cc3S(=O)(=O)[O-])c3c4c(cc(=O)n(C)c24)-c2ccccc2C3=O)cccc1S(=O)(=O)[O-].[Na+].[Na+]	culture	Mycobacterium tuberculosis	H37Rv			MIC		>100 µg/mL
Fc1ccc(-c2cncc(N3CCN(c4ccncc4)CC3)n2)cc1Cl	target	Cytomegalovirus		UL97 kinase		IC50		<1 µM
CSC(=S)NN=C1CCCCC1	culture	Mycobacterium tuberculosis	EMB-R			MIC		12.8 µg/mL
Cc1cc(C)cc(-c2cncc(N3CCN(c4ccc(Cl)c(Cl)c4)CC3)n2)c1	target	Cytomegalovirus		UL97 kinase		inhibition	10 µM	>15%
O=[N+]([O-])c1cc2[nH]cnc2c([N+](=O)[O-])c1NCc1ccccc1	culture	Mycobacterium tuberculosis	H37Rv		resazurin	inhibition	6.25 µg/mL	-15%
NCCCCC(Nc1ccc([N+](=O)[O-])cc1[N+](=O)[O-])C(=O)O	culture	Mycobacterium tuberculosis	H37Rv			MIC		>100 µg/mL
CN(C)CCc1c2c(nc3ccccc13)C(=O)c1cccnc1C2=O	culture	Mycobacterium tuberculosis	H37Rv		resazurin	MIC		6.25 µg/mL
OCc1ccc(-c2cncc(N3CCN(c4ccc(F)cc4F)CC3)n2)cc1	target	Cytomegalovirus		UL97 kinase		IC50		<100 µM
CCO/N=C(/NC(=O)NC(=O)/C(=N/OCC)c1ccccc1)c1ccccc1	culture	Mycobacterium tuberculosis	H37Rv		BACTEC	MIC bound		>12.5 µg/mL
Fc1ccc(N2CCN(c3cncc(-c4ccc(-c5ccccc5)c(F)c4)n3)CC2)cc1	target	Cytomegalovirus		UL97 kinase		inhibition	10 µM	>15%
CC/C(=N\NC(N)=O)c1ccccc1	culture	Mycobacterium tuberculosis	H37Rv			MIC		>100 µg/mL
CC(C)OCC1(c2ccccc2)C(=O)N(C)C(=O)N1C	culture	Mycobacterium tuberculosis	H37Rv		BACTEC	MIC bound		>12.5 µg/mL
Nc1ccc(O)c(NC(=O)COc2ccccc2)c1	culture	Mycobacterium tuberculosis	H37Rv			MIC		100 µg/mL
FC1(c2cncc(N3CCN(c4cnccn4)CC3)n2)C=CC(c2ccccc2)=CC1	target	Cytomegalovirus		UL97 kinase		IC50		<100 µM
Nc1cccc(Cl)c1	culture	Mycobacterium tuberculosis	H37Rv			MIC		100 µg/mL
Cc1nnc(NS(=O)(=O)c2ccc(N=Nc3c(N)nc(N)[nH]c3=O)cc2)s1	culture	Mycobacterium tuberculosis	H37Rv		BACTEC	MIC bound		>12.5 µg/mL
Cc1cccc(S(=O)(=O)c2ccccc2)c1	culture	Mycobacterium tuberculosis	H37Rv			MIC		>100 µg/mL
Fc1ccc(-c2cncc(NCc3ccco3)n2)c(F)c1	target	Cytomegalovirus		UL97 kinase		IC50		<10 µM
CC(=O)CC(=O)Nc1ccc2ccc(S(=O)(=O)[O-])cc2c1.[Na+]	culture	Mycobacterium tuberculosis	H37Rv			MIC		>100 µg/mL
CC(C)(C)c1ccc(-c2cncc(N3CCN(c4cccc(C(F)(F)F)c4)CC3)n2)cc1	target	Cytomegalovirus		UL97 kinase		IC50		<100 µM
NC(CCO)C(=O)O	culture	Mycobacterium tuberculosis	H37Rv			MIC		>100 µg/mL
Cc1ccc(NC(=O)c2ccc(Cl)cc2)cc1Cl	culture	Mycobacterium tuberculosis	H37Rv		resazurin	MIC		>12.5 µg/mL
Fc1ccc(N2CCCCC2)c(NC(=S)c2ccncc2)c1	host protein			FRK	kinase activity	inhibition	10 µM	1.3%
O=C1c2c(NCC(O)CCl)cc(S(=O)(=O)O)c(O)c2C(=O)c2c(NCC(O)CCl)cc(S(=O)(=O)O)c(O)c21	culture	Mycobacterium tuberculosis	H37Rv			MIC		>100 µg/mL

Repeating the first 3 entries:

compound | test | species | strain | protein | read by | endpoint | tested at | result
CC(=O)c1cccc(-c2cncc(N3CCN(c4ccc(F)cc4F)CC3)n2)c1 | target | Cytomegalovirus |  | UL97 kinase |  | inhibition | 10 µM | >15%
CC(=O)OC1(C#N)CC2OC1C1N=NN(C(=O)OC(C)(C)C)C21 | culture | Mycobacterium tuberculosis | H37Rv |  | BACTEC | inhibition | 12.5 µg/mL | 12%
C=CCc1ccc(OC)c(OC)c1 | culture | Candida tropicalis | 3189 |  | turbidity | MIC90 |  | 345 µg/mL